Source: patent publication US11634743B2, “Coupled, self-sufficient biotransformation of chenodeoxcholic acid to ursodeoxycholic acid and novel enzyme mutants applicable in said process” (Pharmazell GmbH, priority 2016, dated 2023)
“And” between values parts separate entries of the source, which are not always exact repeats. Identical values can stand only once.

How the values were obtained:
wild-type Cd7α-HSDH = wild-type Cd7α-HSDH (Clostridioides difficile, UniProt Q18CF0); experiment: Kinetic parameters of wild-type Cd7α-HSDH, photometric enzyme assay
Cd7α-HSDH = experiment: Inhibition of Cd7α-HSDH by the product 7-KLCA, photometric assay with 1 mM CDCA
Cd7α-HSDH [A37D] mutant = Cd7α-HSDH [A37D] mutant (Clostridioides difficile, UniProt Q18CF0, A37D); experiment: Kinetic constants of Cd7α-HSDH [A37D] mutant
[1] = 7-KLCA varied, co-substrate constant 0.2 mM NADPH (reduction)
[2] = CDCA varied 5 μM-30 mM, constant 0.5 mM NAD^+
[3] = bile acid varied 5 μM-30 mM, co-substrate constant 0.5 mM NADP^+ (oxidation)
[4] = higher concentrations of CDCA or NADP^+, cofactor NADP^+
[5] = NADP^+ varied 1 μM-10 mM, co-substrate constant 1 mM CA
[6] = NADP^+ varied 1 μM-10 mM, co-substrate constant 1 mM CDCA

With C[C@H](CCC(=O)O)[C@H]1CC[C@H]2[C@@H]3C(=O)C[C@@H]4C[C@H](O)CC[C@]4(C)[C@H]3CC[C@]12C the Km (wild-type Cd7α-HSDH; [1]) was 24.7 µM, the kcat (wild-type Cd7α-HSDH; [1]) was 0.6 ± 0.0 s⁻¹ and the vmax (wild-type Cd7α-HSDH; [1]) was 1.1 U mg^−1 and 1.1 ± 0.02 U mg^−1. For the same molecule, the “inhibitory effect of the product” value (Cd7α-HSDH; 0-20 mM 7-KLCA) was “strong inhibitor”, the “activity in the presence of product” value (Cd7α-HSDH; 1 mM 7-KLCA, Cd7α-HSDH with N-His-Tag) was 28% and the residual activity (Cd7α-HSDH; 2.5 mM 7-KLCA, Cd7α-HSDH with N-His-Tag) was “about 10%”.

With C[C@H](CCC(=O)O)[C@H]1CC[C@H]2[C@@H]3[C@H](O)C[C@@H]4C[C@H](O)CC[C@]4(C)[C@H]3CC[C@]12C [listing 1 of 2 here] the kcat (Cd7α-HSDH [A37D] mutant; [2]) was 9.8 ± 1.9, the substrate inhibition (Cd7α-HSDH [A37D] mutant; CDCA with the cofactor NAD^+) was “strong substrate inhibition” and the vmax (Cd7α-HSDH [A37D] mutant; apparent vmax, CDCA varied 5 μM-30 mM, constant 0.5 mM NAD^+, 25° C., pH 8.0) was 19.5 ± 3.7. For the same molecule, the substrate inhibition (wild-type Cd7α-HSDH; CDCA with the cofactor NAD^+) was “unusual strong substrate inhibition”, the residual activity (wild-type Cd7α-HSDH; at 2.5 mM CDCA, cofactor NAD^+, highest activity at 0.1 mM CDCA) was “about 10%” and the Km (wild-type Cd7α-HSDH; [3]) was 10.1 µM. The kcat (wild-type Cd7α-HSDH; [3]) was 4.3 ± 0.1 s⁻¹, the vmax (wild-type Cd7α-HSDH; [3]) was 8.5 U mg^−1 and 8.5 ± 0.1 U mg^−1 and the substrate inhibition (wild-type Cd7α-HSDH; [4]) was “no substrate inhibition was observed”.

C[C@H](CCC(=O)O)[C@H]1CC[C@H]2[C@@H]3[C@H](O)C[C@@H]4C[C@H](O)CC[C@]4(C)[C@H]3C[C@H](O)[C@]12C was tested, and the Km (wild-type Cd7α-HSDH; [3]) was 117 µM, the kcat (wild-type Cd7α-HSDH; [3]) was 46.1 ± 0.7 s⁻¹ and the vmax (wild-type Cd7α-HSDH; [3]) was 91.9 ± 1.4 U mg^−1. The “activity of CA oxidation relative to CDCA” value (wild-type Cd7α-HSDH; oxidation with NADP^+) was 10 times.

With NC(=O)c1ccc[n+]([C@@H]2O[C@H](COP(=O)([O-])OP(=O)(O)OC[C@H]3O[C@@H](n4cnc5c(N)ncnc54)[C@H](OP(=O)(O)O)[C@@H]3O)[C@@H](O)[C@H]2O)c1 the Km (wild-type Cd7α-HSDH; [5]) was 49.5 µM, the kcat (wild-type Cd7α-HSDH; [5]) was 80.1 ± 1.6 s⁻¹ and the vmax (wild-type Cd7α-HSDH; [5]) was 159.7 ± 3.2 U mg^−1. For the same molecule, the Km (wild-type Cd7α-HSDH; [6]) was 42.9 µM, the kcat (wild-type Cd7α-HSDH; [6]) was 5.6 ± 0.2 s⁻¹ and the vmax (wild-type Cd7α-HSDH; [6]) was 11.2 ± 0.4 U mg^−1. The substrate inhibition (wild-type Cd7α-HSDH; [4]) was “no substrate inhibition was observed”.

Molecule C[C@H](CCC(=O)O)[C@H]1CC[C@H]2[C@@H]3[C@H](O)C[C@@H]4C[C@H](O)CC[C@]4(C)[C@H]3CC[C@]12C [listing 2 of 2 here] has a Km (Cd7α-HSDH [A37D] mutant; [2]) of 340 µM and a Ki (Cd7α-HSDH [A37D] mutant; read-out: Kl, substrate inhibition, CDCA varied 5 μM-30 mM, constant 0.5 mM NAD^+) of 4.9 mM.
